According to USRE49949E1, “Reducing risk of contracting clostridium-difficile associated disease” (The Board of Regents of the Nevada System of Higher …, priority 2012, dated 2024):

Test system: C. difficile spores
Settings: for triggering of spore germination in the absence of taurocholate: 12 mM, germination buffer, no taurocholate

## NCC(=O)O [Compound A01, Glycine]
  triggering of spore germination in the absence of taurocholate: do not trigger

## N[C@@H](Cc1ccccc1)C(=O)O [Compound A26, L-phenylalanine]
  triggering of spore germination in the absence of taurocholate: do not trigger

## C[C@H](CCC(=O)NCC(=O)O)[C@H]1CC[C@H]2[C@@H]3[C@H](O)C[C@@H]4C[C@H](O)CC[C@]4(C)[C@H]3C[C@H](O)[C@]12C [Compound T17, 3α,7α,12α-Trihydroxy-5β-cholan-24-oic acid N-(carboxymethyl)amide, reference compound]
BHIS media versus buffer
  drop of spore germination rate in BHIS media: ~10 fold

## C[C@H](CCC(=O)NCCS(=O)(=O)O)[C@H]1CC[C@H]2[C@@H]3[C@H](O)C[C@@H]4C[C@H](O)CC[C@]4(C)[C@H]3C[C@H](O)[C@]12C [Taurocholate, 2-[(3α,7α,12α-trihydroxy-24-oxo-5β-cholan-24-yl)amino]ethanesulfonic acid, reference compound]
BHIS supplemented with taurocholate
  effect of supplementing BHIS on spore germination: augmented

## C[C@H](CCC(=O)O)[C@H]1CC[C@H]2[C@@H]3[C@H](O)C[C@@H]4C[C@H](O)CC[C@]4(C)[C@H]3CC[C@]12C [chenodeoxycholate, reference compound]
BHIS with 12 mM taurocholate and 12 mM chenodeoxycholate
  effect on taurocholate-enhanced spore germination in BHIS: inhibited
